Results on two compounds are retold here after PubChem BioAssay AID488862 (Broad Institute, 2010).

Structures are written as SMILES. Only a part is listed here, and it is no random draw. The source made the active and inactive calls. Cut-off read from the data, not from the text of the source: active = inhibition above about 52%; inactive = the rest.

A short description of the assay: inhibition of PrP 5' UTR reporter expression (AID 488862). Note: 0 = median of the neutral control wells. The conditions noted are these: cell-based PrP 5' UTR mRNA reporter, plate reader; hits give high values; concentration not given here.
Usually inhibition stands for the change of the read-out against control, counted positive when it falls. For `O=P(Nc1ccccn1)(c1cccc2ccccc12)c1cccc2ccccc12`, the inhibition was active: 78.6%.

In the case of `CN(C(=O)Cc1ccc(Cl)c(Cl)c1)[C@H]1CCCC[C@@H]1N1CCCC1`, the inhibition is active: 85.3%.
